A mixed list of measured activities; the numbers were collected in NIAID ChemDB.

Shared fields: growth or infection tests; agent: Coxsackie virus

Conditions beyond the fields shown may differ between rows.

SMILES,cell line,tested at,strain,method,measure,result
CCn1nc(-c2ccc(Cn3ccc4ccccc43)cc2)nc1C,-,-,B4,-,MIC,80 µg/mL
O=C1C=CN(COCCO)S(=O)(=O)N1COCCO,VERO,-,TYPE B4,-,EC50,>400 µg/mL
N#Cc1cc([N+](=O)[O-])ccc1Oc1ccc(Cl)c(Cl)c1,VERO,1 µg/mL,TYPE B4,plaque count,inhibition,93.2%
CSc1nsc(-c2ccc(O)cc2)c1C#N,HEP-2,-,TYPE B1,plaque count,EC50,>2 µM
Nc1nccc2c1ncn2[C@@H]1CC[C@@H](O)[C@H]1O,-,-,TYPE B4,-,MIC,>200 µg/mL
Cc1nc(CC(=O)NN)nn1C,-,-,B4,-,MIC,>400 µg/mL
CC(=O)OCCOCN1C(=N)/C(=C(\C)O)C(N)=NS1(=O)=O,VERO,-,TYPE B4,-,EC50,>400 µg/mL
Nc1nccc2c1ncn2[C@@H]1C[C@H](CO)[C@@H](O)[C@H]1O,-,-,TYPE B4,-,MIC,>400 µg/mL
CSc1ncnc2c1cnn2Cc1cnnn1CCCCO,HeLa,-,B4,-,EC50,>400 µg/mL
CC(=O)OCCOCN1C(=O)C=CN(COCCO)S1(=O)=O,HeLa,-,TYPE B4,-,EC50,>400 µg/mL
CSc1nsc(SC)c1C#N,HEP-2,-,TYPE B1,plaque count,EC50,>12 µM
CNc1ncnc2c1cnn2Cc1cn(CCCCO)nn1,HeLa,-,B4,-,EC50,>400 µg/mL
Nc1ncnc2c1ncn2[C@@H]1CC[C@@H](O)[C@H]1O,-,-,TYPE B4,-,MIC,>200 µg/mL
CSc1nsc(-c2c(Cl)cccc2Cl)c1C#N,HEP-2,-,TYPE B1,plaque count,EC50,>5 µM
COc1ncnc2c1cnn2Cc1cn(CCCCO)nn1,HeLa,-,B4,-,EC50,>400 µg/mL
C/C(O)=C1\C(=N)N(COCCO)S(=O)(=O)N=C1N,VERO,-,TYPE B4,-,EC50,>400 µg/mL
Cc1nc(Cc2n[nH]c(=S)n2-c2ccccc2)nn1C,-,-,B4,-,MIC,80 µg/mL
Nc1nc2c(ccn2[C@@H]2C[C@H](CO)[C@@H](O)[C@@H]2O)c(=O)[nH]1,-,-,A21,-,MIC,>100 µg/mL
CC(=O)OCCOCN1C=CC(=O)N(COCCO)S1(=O)=O,VERO,-,TYPE B4,-,EC50,>400 µg/mL
Nc1nccc2c1ncn2[C@@H]1C=C(CO)[C@@H](O)[C@H]1O,-,-,TYPE B4,-,MIC,>400 µg/mL
N#CC1=CN(COCCO)S(=O)(=O)N=C1N,VERO,-,TYPE B4,-,EC50,>400 µg/mL
OCCCCn1nncc1Cn1ncc2c(SCc3ccccc3)ncnc21,HeLa,-,B4,-,EC50,>400 µg/mL

Repeating the final 2 entries:

SMILES	cell line	tested at	strain	method	measure	result
N#CC1=CN(COCCO)S(=O)(=O)N=C1N	VERO	-	TYPE B4	-	EC50	>400 µg/mL
OCCCCn1nncc1Cn1ncc2c(SCc3ccccc3)ncnc21	HeLa	-	B4	-	EC50	>400 µg/mL

ECn is the concentration giving n% inhibition of infection, replication or growth. Inhibition is in % at the dose shown (toxicity tests: loss of growth or viability). Blank or dashed fields: not listed here.